In patent publication US8362201B2 (priority 2000, dated 2013):

System: newborn BALB/c mice
Assay: Subcutaneous injection into newborn mice

CC[C@H](C)[C@H](NC(=O)CNC(=O)CNC(=O)[C@H](CC(C)C)NC(=O)[C@@H](NC(=O)CNC(=O)CNC(=O)[C@@H](NC(=O)[C@H](CC(C)C)NC(=O)CNC(=O)[C@@H]1CCCN1C(=O)CNC(=O)[C@H](CO)NC(=O)[C@H](CO)NC(=O)[C@@H](NC(=O)[C@@H]1CSSC[C@@H]2NC(=O)[C@H](CC(=O)O)NC(=O)[C@H](CCCNC(=N)N)NC(=O)[C@H](CC(N)=O)NC(=O)[C@H](CO)NC(=O)[C@H](CO)NC(=O)[C@@H]3CSSC[C@H](NC(=O)[C@H](C(C)C)NC(=O)[C@@H]4CCCN4C(=O)[C@H]([C@@H](C)O)NC(=O)[C@H](CC(C)C)NC(=O)[C@H](CCC(=O)O)NC(=O)[C@H](CSSC[C@H](NC(=O)[C@H](C)NC(=O)[C@H](CC(C)C)NC(=O)[C@@H](N)CC(C)C)C(=O)N[C@@H](CC(C)C)C(=O)N[C@@H](Cc4ccccc4)C(=O)NCC(=O)N[C@@H](CC(N)=O)C(=O)NCC(=O)N[C@@H](CCCNC(=N)N)C(=O)N3)NC2=O)C(=O)N[C@@H](CCCCN)C(=O)N[C@@H](CCCNC(=N)N)C(=O)NCC(=O)N[C@@H](CO)C(=O)N1)C(C)C)C(C)C)[C@@H](C)CC)C(=O)N[C@@H](CC(C)C)C(=O)O
highest mouse dose without adverse effects relative to PD50 in crickets (800 pmol g^−1 in mice versus PD50 in crickets): 5 fold | adverse effects (subcutaneous, newborn BALB/c mice, doses up to 800 pmol g^−1, n=3): did not provoke any adverse effects
